A mixed list of measured activities; the numbers were collected in NIAID ChemDB.

Common to all: tests in culture; species: Human cytomegalovirus; measure: EC50

ECn: concentration that inhibits the pathogen or its effect by n%.

SMILES | strain or isolate | cell line | read by | value
Nc1nccc2c1ncn2[C@@H]1O[C@H](CO)[C@@H](O)[C@H]1O | DAVIS (100 PFU) | HEL | cytopathic effect | 10 µg/mL
Cc1cccc2c1OP(=O)(OC[C@H]1O[C@@H](n3cc(/C=C/Br)c(=O)[nH]c3=O)C[C@@H]1OC(=O)[C@H](N)CC(C)C)OC2 | AD169 | HELF | plaque count | >128 µg/mL
CC(=O)N(O)CCCCCNC(=O)CCC(=O)N(O)CCCCCNC(=O)CCC(=O)N(O)CCCCCN | AD169 | HEL | plaque count | 4.4 µg/mL
CC(C)C(=O)O[C@H]1C[C@H](n2cc(/C=C/Br)c(=O)[nH]c2=O)O[C@@H]1COP1(=O)OCc2ccccc2O1 | AD169 | HELF | plaque count | >128 µg/mL
O=C1NCc2c1c1c3ccccc3[nH]c1c1[nH]c3ccccc3c21 | Isolate 6 | HEF | plaque count | 0.13 µM
Nc1nc2c(ncn2COC(CO)CO)c(=O)[nH]1 | LY9990 (ganciclovir-resistant) | HEL | plaque count | ≥26.2 µg/mL
O=c1[nH]c(=O)n([C@H]2C[C@H](O)[C@@H](COP3(=O)OCc4c(Cl)cccc4O3)O2)cc1/C=C/Br | AD169 | HELF | plaque count | >128 µg/mL
O=C(O)C[C@H](NCCN[C@@H](CC(=O)O)C(=O)O)C(=O)O | DAVIS | HEL | plaque count | 11.8 µg/mL
Cc1cccc2c1OP(=O)(OC[C@H]1O[C@@H](n3cc(/C=C/Br)c(=O)[nH]c3=O)C[C@@H]1OC(=O)[C@H](N)Cc1ccccc1)OC2 | AD169 | HELF | plaque count | >128 µg/mL
NC(=O)c1ncn([C@@H]2O[C@H](CO)[C@@H](O)[C@H]2O)n1 | AD-169 (20 PFU) | HEL | plaque count | >100 µg/mL
O=c1[nH]c(=O)n([C@H]2C[C@H](O)[C@@H](COP3(=O)OCc4cc(Cl)ccc4O3)O2)cc1/C=C/Br | AD169 | HELF | plaque count | >128 µg/mL
Nc1ncnc2c1ncn2[C@@H]1C[C@H](c2ccccc2)[C@@H](O)[C@H]1O | AD-169 (100 PFU) | HEL | cytopathic effect | 60 µg/mL
CC1CNCCN1S(=O)(=O)c1cccc2cnccc12 | A6245 | HEF | plaque count | 22.5 µM
Nc1ncnc2c1ncn2[C@@H]1C[C@H](O)[C@@H](O)[C@H]1O | DAVIS (20 PFU) | HEL | plaque count | 0.4 µg/mL
O=c1cc(-c2ccc(O)c(O)c2)oc2cc(O)cc(O)c12 | A6245 | HEF | plaque count | 12.5 µM

Rows are shuffled and stem from different studies.